This assay deals with SARS‐CoV‐2 NSP3 ADRP domain (1023–1192), tag cleaved, for FP (SARS-CoV-2) (UniProt P0DTD1). Nature of the assay: FP.

Usually Kd stands for the constant that tells how readily two partners part at equilibrium. A lower Kd goes with higher affinity. Substance MBOAT1 wild-type peptide showed a dissociation constant (Kd) of 49 µM.
